A mixed list of measured activities; the numbers were collected in NIAID ChemDB.

Shared fields: whole-cell or culture tests; agent: Hepatitis C virus; read by: replicon; read-out: EC50

Two numbers with a dash give a range or band. Blank or dashed fields: not listed here. ECn: concentration that inhibits the pathogen or its effect by n%. Lines come from different laboratories, so protocols vary.

smiles	strain	cell line	conditions	value
Cc1ccc(S(=O)(=O)Oc2ccc(F)cc2/C=N/NC(=O)Cc2cccc(Cl)c2)cc1		Huh7		<5 µM
CCOc1nc(N)nc2ccc(-c3ccc(C(=O)NC(C)(C)C)cc3)nc12		Huh7		>1 µM
COc1cccc(CC(=O)N/N=C/c2c(F)cccc2OS(=O)(=O)c2ccc(C(F)(F)F)cc2)c1		Huh7		<5 µM
O=C(O)c1ccc2c(C3CCCCC3)c3n(c2c1)CCCc1nccnc1-3		Huh7		1–10 µM
COc1cccc(S(=O)(=O)Oc2ccccc2/C=N/NC(=O)Cc2ccccc2)c1		Huh7		5–50 µM
COc1ccc2nc(Cl)c(Cn3c(C(=O)O)c(-c4ccc[nH]c4=O)c4c5occc5c(F)cc43)cc2c1				<0.5 µM
CNC(=O)c1c(-c2ccc(F)cc2)oc2cc(N(CCOC)S(C)(=O)=O)c(OC)cc12		Huh7		<1 µM
Cc1ccccc1Cn1c(C(=O)NS(=O)(=O)C2CC2)c(-c2ccc[nH]c2=O)c2c3occc3ccc21				<0.5 µM
CC(C)Nc1nc(NCCN2CCOCC2)nc2ccc(-c3ccc(F)cc3)nc12				0.25–2 µM
C=C[C@@H]1C[C@]1(NC(=O)[C@@H]1C[C@@H](Oc2cc(-c3ccccc3)nc3cc(OC)ccc23)CN1C(=O)[C@@H](NC(=O)C(=O)OC)C(C)(C)C)C(=O)NS(=O)(=O)C1CC1	1b	Huh7		<0.5 µM
CC(C)(C)c1ccc(COc2ccccc2/C=N/NC(=O)Cc2cccnc2)cc1		Huh7		>50 µM
CCOc1nc(NCc2ccc(F)cc2)nc2ccc(-c3ccc(F)c(Cl)c3)nc12				<0.1 µM
O=C(O)c1ccc2c(C3CCCCC3)c3n(c2c1)CCOc1ccccc1-3		Huh7		0.01–1 µM
NC(=O)COc1ccc2c(c1)S(=O)(=O)N=C(c1c(O)c3cc(F)ccc3n(CCC3CC3)c1=O)N2	1b 5903			0.049 µM
CNC(=O)c1c(-c2ccc(F)cc2)oc2cc(N3CCOCC3)c(OCc3c(C)noc3C)cc12		Huh7		<10 µM
O=C(Cc1ccc(C(F)(F)F)cc1)N/N=C/c1ccccc1OS(=O)(=O)c1ccc(C(F)(F)F)cc1		Huh7		<5 µM
O=C(O)c1c(-c2ccc[nH]c2=O)c2c3occc3c(F)cc2n1Cc1cc(=O)[nH]cc1F				<0.5 µM
CCOc1nc(N)nc2ccc(-c3ccc(NC(=O)[C@H](C)N)c(OC)c3)nc12		Huh7		<0.3 µM
CNC(=O)c1c(-c2ccc(F)cc2)oc2cc(OC)c(O)cc12		Huh7		>30 µM
COc1cc(O[C@@H]2C[C@@H](C(=O)NC3(C(=O)NS(=O)(=O)C4CC4)CC34CC4)N(C(=O)[C@@H](NC(=O)OC(C)(C)C)C(C)(C)C)C2)c2ccc(-c3ccccc3)cc2n1	1b	Huh7		<0.5 µM
CNC(=O)c1c(-c2ccc(F)cc2)oc2cc(N(C)S(C)(=O)=O)c(OCc3nc(C(=O)O)cs3)cc12		Huh7		>30 µM
Nc1noc2ccc(Cn3c(C(=O)NS(=O)(=O)C4CC4)c(-c4ccc[nH]c4=O)c4c5occc5c(F)cc43)cc12				<0.5 µM
O=C(O)/C=C/c1cccc(-c2n[nH]c(C3(NC(=O)c4ccc5c(C6CCCCC6)c6n(c5c4)CC=Cc4ccccc4-6)CCCC3)n2)c1		Huh7		0.01–1 µM
Nc1cc(Cn2c(C(=O)O)c(-c3ccc[nH]c3=O)c3c4scnc4ccc32)ccn1				>1.5 µM
O=C(O)c1ccc2c(C3CCCCC3)c3n(c2c1)CC(O)CNc1ccccc1-3		Huh7		1–10 µM
O=C(Cc1ccc(Cl)nc1)N/N=C/c1ccccc1OS(=O)(=O)c1ccc(C(F)(F)F)cc1		Huh7		<5 µM
CNC(=O)c1c(-c2ccc(C#N)cc2)oc2ccc(OC(C)C)cc12		Huh7		<30 µM
CS(=O)(=O)NC(=O)c1c(-c2ccc[nH]c2=O)c2c3c(ccc2n1Cc1cc(F)ccc1F)OCCO3				<1 µM
CCCc1nc(NCc2ccc(S(N)(=O)=O)cc2)nc2ccc(-c3ccc(F)cc3)nc12				<0.1 µM
CNC(=O)c1c(-c2ccc(N3CCOCC3)cc2)oc2ccc(OC)cc12		Huh7		>30 µM
CC(C)(CN1CCCC1)NC(=O)c1ccc(-c2ccc3nc(N)nc(O[C@H]4CCOC4)c3n2)cc1		Huh7		<0.3 µM
COc1nc(N)nc2c1ncn2[C@@H]1O[C@H](COP(=O)(N[C@@H](C)C(=O)OC(C)C)Oc2ccccc2)[C@@H](O)[C@@]1(C)F	2a		17 d	0.019 µM
O=C(Cc1cccc(Cl)c1)N/N=C/c1ccc(F)cc1OS(=O)(=O)c1ccc(C(F)(F)F)cc1		Huh7		5–50 µM
NC(=O)c1ccc(Cn2c(C(=O)O)c(-c3ccc[nH]c3=O)c3c4occc4c(F)cc32)cc1				<0.5 µM
COC(=O)Nc1ccc(-c2ccc3nc(N)nc(NCCS(C)(=O)=O)c3n2)cc1		Huh7		0.3–1 µM
C=C[C@@H]1C[C@]1(NC(=O)[C@@H]1C[C@@H](Oc2cc(-c3ccccc3)nc3cc(OC)ccc23)CN1C(=O)[C@@H](NC(=O)OC(C)(C)C)C(C)(C)C)C(=O)NS(=O)(=O)c1ccc(C#N)cc1	1b	Huh7		<0.5 µM
O=C(O)c1ccc2c(C3CCCCC3)c3n(c2c1)C/C(=N/O)Cc1ccccc1-3		Huh7		1–10 µM
O=C(NS(=O)(=O)C1CC1)c1c(-c2ccc[nH]c2=O)c2c3c(ccc2n1Cc1ccccc1F)CCCO3				<1 µM
C=C[C@@H]1C[C@]1(NC(=O)[C@@H]1C[C@@H](Oc2cc(-c3ccccc3)nc3cc(OC)ccc23)CN1C(=O)[C@@H](NC)C(C)(C)C)C(=O)NS(=O)(=O)C1CC1	1b	Huh7		<5 µM
CNC(=O)c1c(-c2ccc(F)cc2)oc2ccc(C)cc12		Huh7		<10 µM
Cc1c[nH]c(=O)cc1Cn1c(C(=O)O)c(-c2ccc[nH]c2=O)c2c3occc3c(F)cc21				<0.5 µM
C=C[C@@H]1C[C@]1(NC(=O)[C@@H]1C[C@@H](Oc2cc(-c3ccccc3)nc3cc(OC)ccc23)CN1C(=O)[C@@H](NC(=O)CC)C(C)(C)C)C(=O)NS(=O)(=O)C1CC1	1b	Huh7		<0.05 µM
Cn1c(-c2ccccc2)c(C2CCCCC2)c2ccc(C(=O)NC3(c4nnnn4CC(=O)O)CCCC3)cc21		Huh7		>10 µM
CCOc1nc(NCc2ccc(S(N)(=O)=O)cc2)nc2ccc(-c3cccc(NS(=O)(=O)N(C)C)c3)nc12				<0.1 µM
CCN(CC)C(=O)C1=Cc2ccccc2-c2c(C3CCCCC3)c3ccc(C(=O)NS(=O)(=O)N(C)C)cc3n2C1		Huh7		0.01–1 µM
COc1cccc(CC(=O)N/N=C/c2ccccc2OS(=O)(=O)c2ccc(OC)cc2OC)c1		Huh7		<5 µM
C=C[C@@H]1C[C@]1(NC(=O)[C@@H]1C[C@@H](Oc2cc(-c3ccccc3)nc3cc(OC)ccc23)CN1C(=O)[C@@H](NC(=O)OCCC(=O)O)C(C)(C)C)C(=O)NS(=O)(=O)C1CC1	1b	Huh7		<0.5 µM
O=C(Cc1cccc2occc12)N/N=C/c1ccccc1OS(=O)(=O)c1ccc(C(F)(F)F)cc1		Huh7		5–50 µM
Nc1cc(-c2ccc3nc(NCc4ccc(S(N)(=O)=O)cc4)nc(NCC(F)(F)F)c3n2)ccn1				<0.1 µM

A second listing of 6 rows from above:

smiles,strain,cell line,conditions,value
O=C(Cc1ccc(Cl)nc1)N/N=C/c1ccccc1OS(=O)(=O)c1ccc(C(F)(F)F)cc1,,Huh7,,<5 µM
C=C[C@@H]1C[C@]1(NC(=O)[C@@H]1C[C@@H](Oc2cc(-c3ccccc3)nc3cc(OC)ccc23)CN1C(=O)[C@@H](NC)C(C)(C)C)C(=O)NS(=O)(=O)C1CC1,1b,Huh7,,<5 µM
C=C[C@@H]1C[C@]1(NC(=O)[C@@H]1C[C@@H](Oc2cc(-c3ccccc3)nc3cc(OC)ccc23)CN1C(=O)[C@@H](NC(=O)CC)C(C)(C)C)C(=O)NS(=O)(=O)C1CC1,1b,Huh7,,<0.05 µM
COc1nc(N)nc2c1ncn2[C@@H]1O[C@H](COP(=O)(N[C@@H](C)C(=O)OC(C)C)Oc2ccccc2)[C@@H](O)[C@@]1(C)F,2a,,17 d,0.019 µM
CNC(=O)c1c(-c2ccc(F)cc2)oc2cc(N(CCOC)S(C)(=O)=O)c(OC)cc12,,Huh7,,<1 µM
CC(C)(C)c1ccc(COc2ccccc2/C=N/NC(=O)Cc2cccnc2)cc1,,Huh7,,>50 µM